Results of unrelated studies side by side (data: NIAID ChemDB).

Common to all: tests in culture; organism: Hepatitis C virus; method: luciferase / reporter gene; measure: EC50

Neighbouring rows are from separate reports. ECn: concentration that inhibits the pathogen or its effect by n%.

{"structure": "Nc1cc(-c2cc(=O)c3c(O)cc(O)cc3o2)ccc1N1CCN(c2ccccc2)CC1", "strain or isolate": "1b", "cells": "Huh-Luc-Neo", "result": ">20 µM"}
{"structure": "COc1ccc2c(O[C@@H]3C[C@H]4C(=O)N[C@]5(C(=O)O)C[C@H]5/C=C\\CCCCC[C@H](NC(=O)OC5CCCC5)C(=O)N4C3)cc(-c3csc(NC(C)C)n3)nc2c1", "strain or isolate": "1b", "result": "0.00933 µM"}
{"structure": "NC(=O)c1nc(C#CCc2ccc(F)cc2)n(COCCO)n1", "cells": "Huh 5-2", "result": "22 µg/mL"}
{"structure": "CC(C)COC(=O)Nc1ncnn2c([C@@H]3O[C@H](CO)[C@@H](O)[C@@]3(C)O)ccc12", "cells": "Huh7", "result": ">100 µM"}
{"structure": "O=C(N[C@@H](C(=O)N1CCC[C@H]1c1ncc(-c2ccc(-c3ccc(-c4cnc([C@@H]5CCCN5C(=O)[C@H](NC(=O)C5CC5)c5ccccc5)s4)cc3)cc2)s1)c1ccccc1)C1CC1", "strain or isolate": "genotype 2a", "changes": "P58L", "cells": "Huh7.5", "result": "0.053 µM"}
{"structure": "COc1ccc2c(c1)c(/C=C(\\C)C(=O)Nc1ccc(C(C)(C)C)cc1)cn2Cc1ccccc1", "strain or isolate": "2a J6/JFH-1", "cells": "Huh7.5", "result": ">100 µM"}
{"structure": "CCN(CC)[C@@H](C(=O)N1CCC[C@H]1C(=O)Cc1ccc(-c2ccc(NC(=O)[C@@H]3CCCN3C(=O)[C@@H](c3ccccc3)N(CC)CC)cc2)cc1)c1ccccc1", "strain or isolate": "GT2a", "cells": "Huh7.5.1", "result": "0.0022 µM"}
{"structure": "NC(=O)c1nc(C#CCC2=CCCCC2)n(COCCO)n1", "cells": "Huh 5-2", "result": ">50 µg/mL"}
{"structure": "C/C(=C\\c1cn(S(=O)(=O)Cc2ccccc2)c2ccccc12)C(=O)Nc1ccc(C(C)(C)C)cc1", "strain or isolate": "2a J6/JFH-1", "cells": "Huh7.5", "result": "1.56 µM"}
{"structure": "CC(C)OC(=O)[C@H](C)N[P@](=O)(OC[C@H]1O[C@@H](c2ccc3c(N)ncnn23)[C@](C)(O)[C@@H]1O)OC(=O)C(C)C", "cells": "Huh7", "result": "0.22 µM"}
{"structure": "COC(=O)N[C@@H](CC(C)(C)C)C(=O)N1CCC[C@H]1C(=O)Cc1ccc(-c2ccc(NC(=O)[C@@H]3CCCN3C(=O)[C@H](CC(C)(C)C)NC(=O)OC)cc2)cc1", "strain or isolate": "GT2a", "cells": "Huh7.5.1", "result": "0.024 µM"}
{"structure": "COc1cc(OC)c2c(=O)cc(-c3ccc(N4CCN(c5ccccn5)CC4)c(N)c3)oc2c1", "strain or isolate": "1b", "cells": "Huh-Luc-Neo", "result": ">20 µM"}
{"structure": "C/C(=C\\c1cn(C(=O)OCc2ccccc2)c2ccccc12)C(=O)Nc1ccc(C(C)(C)C)cc1", "strain or isolate": "2a J6/JFH-1", "cells": "Huh7.5", "result": ">100 µM"}
{"structure": "NC(=O)c1nc(C#CCc2ccccc2)n(COCCO)n1", "cells": "Huh 5-2", "result": "18 µg/mL"}
{"structure": "C/C(=C\\c1cn(S(=O)(=O)Cc2ccccc2)c2ccc(C#N)cc12)C(=O)Nc1ccc(C(C)(C)C)cc1", "strain or isolate": "2a J6/JFH-1", "cells": "Huh7.5", "result": "10.4 µM"}
{"structure": "C[C@@]1(O)[C@H](O)[C@@H](CO)O[C@H]1c1ccc2c(=O)[nH]c(N)nn12", "cells": "Huh7", "result": ">100 µM"}
{"structure": "CCCCCOc1ccc(NC(=S)NC(=O)c2cccnc2)cc1C(F)(F)F", "strain or isolate": "1b", "result": "0.1168 µM"}
{"structure": "C/C(=C\\c1cn(CCN(C)C)c2ccc(C#N)cc12)C(=O)Nc1ccc(C(C)(C)C)cc1", "strain or isolate": "2a J6/JFH-1", "cells": "Huh7.5", "result": "1.8 µM"}
{"structure": "O=C(N[C@H]1CCCCC/C=C\\[C@@H]2C[C@@]2(C(=O)NS(=O)(=O)C2CC2)NC(=O)[C@@H]2CC(Oc3ccncc3)CN2C1=O)OCCF", "result": "0.29 µM"}
{"structure": "NC(=O)c1nc(C#CCC2(O)CCCC2)n(COCCO)n1", "cells": "Huh 5-2", "result": ">50 µg/mL"}
{"structure": "CC(C)CCn1c(=O)c(C2=NS(=O)(=O)c3ccccc3N2)c(O)c2ccccc21", "strain or isolate": "1b", "result": "0.0035 µM"}
{"structure": "NC(=O)c1nc(C#CCc2cccc(F)c2)n(COCCO)n1", "cells": "Huh 5-2", "result": "10 µg/mL"}
{"structure": "COC(=O)N[C@@H](C(=O)N1CCC[C@H]1C(=O)Cc1ccc(-c2ccc(NC(=O)[C@@H]3CCCN3C(=O)[C@H](NC(=O)OC)C(C)C)cc2)cc1)C(C)C", "strain or isolate": "GT2a", "cells": "Huh7.5.1", "result": "0.015 µM"}
{"structure": "COc1cc(OC)c2c(=O)cc(-c3ccc(N4CCN(c5nc6ccccc6o5)CC4)c(N)c3)oc2c1", "strain or isolate": "1b", "cells": "Huh-Luc-Neo", "result": "1.5 µM"}
{"structure": "CCCCCCCCOC(=O)Nc1ncnn2c([C@@H]3O[C@H](CO)[C@@H](O)[C@@]3(C)O)ccc12", "cells": "Huh7", "result": "19 µM"}
{"structure": "COc1ccc2c(c1)c(/C=C(\\C)C(=O)Nc1ccc(C(C)(C)C)cc1)cn2S(=O)(=O)Cc1ccccc1", "strain or isolate": "2a J6/JFH-1", "cells": "Huh7.5", "result": "5.3 µM"}
{"structure": "C[C@@]1(O)[C@H](O)[C@@H](CO)O[C@H]1c1cnc2c(N)ncnn12", "cells": "Huh7", "result": "1.3 µM"}
{"structure": "O=C(Cc1ccc(-c2ccc(NC(=O)[C@@H]3CCCN3C(=O)[C@H]3CCCO3)cc2)cc1)[C@@H]1CCCN1C(=O)[C@H]1CCCO1", "strain or isolate": "GT2a", "cells": "Huh7.5.1", "result": "0.4 µM"}
{"structure": "COc1ccc(CC#Cc2nc(C(N)=O)nn2COCCO)cc1", "cells": "Huh 5-2", "result": ">50 µg/mL"}
{"structure": "C/C(=C\\c1cn(C)c2ccc(C#N)cc12)C(=O)Nc1ccc(C(C)(C)C)cc1", "strain or isolate": "2a J6/JFH-1", "cells": "Huh7.5", "result": "9.5 µM"}